{
  "source": "paper PMC6459835",
  "about": "“The RNA binding activity of the first identified trypanosome protein with Z-DNA-binding domains”",
  "target": "T1, RBP7910 WT (Trypanosoma brucei) (UniProt Q38AH3)",
  "T1 sequence (looked up)": "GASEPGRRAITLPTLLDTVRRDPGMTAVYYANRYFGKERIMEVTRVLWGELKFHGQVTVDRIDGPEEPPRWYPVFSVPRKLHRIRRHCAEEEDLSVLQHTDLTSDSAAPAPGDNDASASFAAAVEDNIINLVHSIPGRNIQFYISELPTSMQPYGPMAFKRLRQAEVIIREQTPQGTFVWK",
  "assay": "competition with a labelled probe",
  "settings": "10-fold molar excess vs labeled gA6[14], text calls it more efficient than pre-edited CYb; RBB50: 20 mM Tris-HCl pH 7.6, 50 mM KCl, 5 mM MgCl2, 10% glycerol, 1 mM DTT, plus 100 mM KCl and 20 U RNasin; 20 ul, 30 min, RT; recombinant protein; residues 9-189; protein details: N-terminal 6xHis (pET30-a); label: 32P (UTP body or 3' pCp), unlabeled as competitor; letters put together from the …",
  "note": "The exact form of at least one protein or probe is not confirmed. Tags and fusion partners may be left off the protein sequences shown.",
  "data": [
    {"sequence": "GGGAAAUAUGUUUUUUCGUGUUAGAUUUUUGUUAUUUUUUUUAUUAUUUAGAAAUUUAUGUUGUCUUUUUA [CYb edited mRNA]", "values": [
      {"measurement": "binding signal (% reduction of bound labeled gA6[14])", "value": 30}
    ]}
  ]
}
